Pooled drug test results. Numbers come from NIAID ChemDB, via PubChem.

Shared fields: whole-cell or culture tests; agent: Candida albicans; measure: MIC

An empty or dashed field is not shown. Neighbouring rows are from separate reports.

SMILES | strain or isolate | result
N/C(=N/N=C1CCCCCC1)SCc1ccccc1Cl | - | >200 µg/mL
O=C(c1ccc([N+](=O)[O-])cc1)n1c(-c2ccccc2)nc2ccccc21 | - | 9 µg/mL
O=C(Cc1ccc(Cl)cc1)Nc1ccccc1O | - | 25 µg/mL
CC(n1ccnn1)C(O)(Cn1cncn1)c1ccc(Cl)cc1 | TA | >100 µg/mL
C[C@H](n1nnc(CCN2CCN(c3ccc([N+](=O)[O-])cc3)CC2)n1)[C@](O)(Cn1cncn1)c1ccc(F)cc1F | - | 2 µg/mL
C[N+](C)(COC1CCCCCCC1)Cc1cc(N=Nc2ccc(Cl)cc2)ccc1O | - | 268 µM
CCCCCCCCCCCCCCCC1=NCCCC1 | ATCC 90028 | 20 µg/mL
c1ccc(-c2csc(NN=C3CCCCCC3)n2)cc1 | - | 0.78 µg/mL
CCCC(=O)/C=C1\Sc2cc(OC)ccc2N1C1=CCCCCC1 | ATCC 10231 | >100 µg/mL
C[N+](C)(COC1CCCCC1)Cc1cc(N=Nc2ccc(Cl)cc2)ccc1O | - | 71 µM
CCCCN1/C(=C/C(=O)c2ccccc2)Sc2ccccc21 | ATCC 14053 | 50 µg/mL
CC1=CC[C@H](Br)[C@@]2(C)CC[C@@H](Br)C(C)(O)CC[C@@H](C(C)(C)Br)OC(=O)c3ccc(O)c(c3)C[C@H]12 | - | >75 µM
O=C(c1ccc([N+](=O)[O-])cc1)n1c(-c2ccccc2Cl)nc2ccccc21 | - | 17 µg/mL
CC(n1ncnn1)C(O)(Cn1cncn1)c1ccccc1F | TA | >100 µg/mL
Cc1ccc(N=Nc2ccc(O)c(C[N+](C)(C)COCC3CCC(C)CC3)c2)cc1 | - | 143 µM
CN(C)C(=O)/C=C/c1ccccc1 | - | 0.001 µg/mL
C[N+](C)(COCCC1CCCCC1)Cc1cc(N=Nc2ccc(Cl)cc2)ccc1O | - | 34 µM
COc1ccc2c(c1)S/C(=C\C(=O)C(C)C)N2C1=CCCCCC1 | ATCC 14053 | >100 µg/mL
COc1ccc(C(=O)Nc2cc(C)ccc2O)c(OC)c1 | - | 25 µg/mL
CC(=O)/C=C1\Sc2ccccc2N1/C1=C/CCCCCCCCCC1 | ATCC 10231 | ≥100 µg/mL
N/C(=N/N=C1CCCCCC1)SCc1cccc(Cl)c1 | - | >200 µg/mL
O=[N+]([O-])c1ccc2oc(-c3ccc(Cl)cc3)nc2c1 | - | 12.5 µg/mL
Cc1ccc(C(C)C)cc1O | M1 | 0.16 µg/mL
CC(n1nccn1)C(O)(Cn1cncn1)c1ccccc1F | TA | >100 µg/mL
C=C1CC[C@@H]2[C@](C)(CCC3[C@@]4(C)[C@H](O)CCC(C)(C)[C@@H]4CC[C@]32C)[C@H]1CN=C(N)N | - | 4 µM
C[C@H](n1nnc(CCN2CCN(c3ccc(Cl)cc3)CC2)n1)[C@](O)(Cn1cncn1)c1ccc(F)cc1F | V-01-191A-261 (resistant) | 2 µg/mL
C=C1CC[C@H](Br)[C@@]2(C)CC[C@@H](Br)[C@@]3(C)CC[C@H](OC(=O)c4ccc(O)c(c4)C[C@H]12)C(C)(C)O3 | - | 45 µM
C[C@H](n1ccnn1)[C@@](O)(Cn1cncn1)c1ccccc1F | TA | 100 µg/mL
CCCCCCCCCCCCCCC1=NCCCC1 | ATCC 90028 | 20 µg/mL
Cl.N#CCC1=NC2(CCCCC2)Cc2ccccc21 | 264/624 | 500 µg/mL
CC(n1ccnn1)C(O)(Cn1cncn1)c1ccc(OC(F)(F)F)cc1 | TA | >100 µg/mL
CC(C(Sc1ccccc1C(=O)O)c1ccccc1)[N+](=O)[O-] | ATCC64550 | 15.6 µg/mL
Cc1ccc(C(=O)CC(N/N=C(\N)c2ccccn2)c2ccccn2)cc1 | C873 | 80 µg/mL
C=C(C)[C@@H]1CCC(C)(O)[C@H](Br)CCC2C(C)=CCC(C)=C2Cc2cc(ccc2O)C(=O)O1 | - | 46 µM
O=C(c1ccccc1Br)n1c(-c2ccc([N+](=O)[O-])cc2)nc2ccccc21 | - | 7 µg/mL
O=C(CN1CCOCC1)Nc1nc(-c2ccccc2)cc(-c2ccc(F)cc2)n1 | - | 25 µg/mL
Nc1ccc(O)c(NC(=O)c2ccc(Cl)cc2)c1 | - | 25 µg/mL
COc1cc(C(Sc2ccccc2C(=O)O)C(C)[N+](=O)[O-])ccc1O | ATCC64550 | 15.6 µg/mL
Cc1ccc2c(c1)S/C(=C\C(=O)C(C)C)N2C1=CCCCCC1 | ATCC 10231 | ≥100 µg/mL
Cc1cccc(C(=O)CC(N/N=C(\N)c2ccccn2)c2ccccn2)c1 | C873 | 80 µg/mL
NS(=O)(=O)c1nnc(NS(=O)(=O)c2ccc(NC(=O)NS(=O)(=O)c3ccccc3)cc2)s1 | C316 | >100 µg/mL
COc1ccc(C[C@H](N)C(=O)N[C@H]2[C@@H](O)[C@H](n3cnc4c(N)ncnc43)O[C@@H]2C(=O)O)cc1 | FP-623 | 1.6 µg/mL
CCCCCCCCCOC[N+](C)(C)Cc1cc(N=Nc2ccc(C)cc2)ccc1O | - | 541 µM
O=C(Cc1ccc(Br)cc1)Nc1cc(Cl)ccc1O | - | 25 µg/mL
Cl.N#CCC1=NC2(CCCC2)Cc2ccccc21 | 264/624 | 250 µg/mL
N/C(=N\NC(CC(=O)c1cccc(Cl)c1)c1ccncc1)c1ccccn1 | C873 | 40 µg/mL
COc1cc(OC)c2c(O)c3c(c(-c4ccc5cc6c(c(O)c5c4O)C(=O)CC(C)(O)C6)c2c1)CC(C)OC3C | - | 16 µg/mL
Cc1ccc(C(=O)CC(N/N=C(\N)c2ccccn2)c2cccnc2)cc1 | C873 | >160 µg/mL
CCOC(=O)/C=C/c1ccccc1 | - | 0.002 µg/mL
NS(=O)(=O)c1nnc(NS(=O)(=O)c2ccc(NC(=O)NS(=O)(=O)c3ccc(Cl)cc3)cc2)s1 | C316 | 86 µg/mL
Cc1ccc(C(=O)Nc2cc(C)ccc2O)c(C)c1 | - | 12.5 µg/mL
CCOc1ccc(C(C[N+](=O)[O-])Sc2ccccc2C(=O)O)cc1 | ATCC64550 | 3.9 µg/mL
O=C(c1ccc([N+](=O)[O-])cc1)n1c(-c2ccc(Cl)cc2)nc2ccccc21 | - | 4 µg/mL
Cc1c(O)cccc1C(=O)N[C@@H](CSc1ccccc1)[C@H](O)CN1C[C@H]2CCCC[C@H]2C[C@H]1C(=O)NC(C)(C)C | I45B | >64 µg/mL
CSc1ccccc1NC1CCCCCCCCCCC1.CSc1ccccc1NC1CCCCCCCCCCC1 | ATCC 14053 | >100 µg/mL
C[C@H](n1nnnc1CCN1CCN(c2ccc([N+](=O)[O-])cc2)CC1)[C@](O)(Cn1cncn1)c1ccc(F)cc1F | V-01-191A-261 (resistant) | 2 µg/mL
O=C(O)c1ccccc1SC(C[N+](=O)[O-])c1ccc([N+](=O)[O-])cc1 | ATCC64550 | 3.9 µg/mL
Cc1ccc2c(c1)S/C(=C\C(=O)C(C)C)N2C1CCC1 | ATCC 14053 | >100 µg/mL
O=C(O)c1ccccc1-c1nc2ccccc2n1C(=O)c1ccc([N+](=O)[O-])cc1 | - | 33 µg/mL
CCC(=O)C1Sc2ccccc2N(C2CCCCCCC2)C1=O | ATCC 10231 | ≥100 µg/mL
CC(n1ncnn1)C(O)(Cn1cncn1)c1ccc(F)cc1 | TA | >100 µg/mL
COc1cccc(OC)c1C(=O)Nc1cc(Cl)ccc1O | - | 25 µg/mL
CC(n1cnnn1)C(O)(Cn1cncn1)c1ccc(F)cc1 | TA | >100 µg/mL
Cc1cccc(C(=O)CC(N/N=C(\N)c2ccccn2)c2cccnc2)c1 | C873 | >160 µg/mL
C[C@H](n1nnc(CCN2CCN(C(c3ccccc3)c3ccccc3)CC2)n1)[C@](O)(Cn1cncn1)c1ccc(F)cc1F | - | 4 µg/mL
Cc1ccc(N=Nc2ccc(O)c(C[N+](C)(C)COC3CCCCC3)c2)cc1 | - | 148 µM
COc1ccccc1-c1nc2ccccc2n1C(=O)c1ccc([N+](=O)[O-])cc1 | - | 8 µg/mL
Clc1ccc(Cc2nc3ccccc3o2)cc1 | - | 25 µg/mL
CCc1ccc(C(C[N+](=O)[O-])Sc2ccccc2C(=O)O)cc1 | ATCC64550 | 3.9 µg/mL
C[N+](C)(COCCCC1CCCCC1)Cc1cc(N=Nc2ccc(Cl)cc2)ccc1O | - | 129 µM
O=C(c1ccc([N+](=O)[O-])cc1)n1c(-c2ccc(O)cc2)nc2ccccc21 | - | 35 µg/mL
Cc1cccc(C(=O)CC(N/N=C(\N)c2ccccn2)c2ccncc2)c1 | C873 | 80 µg/mL
CCCCCCCCCOC[N+](C)(C)Cc1cc(N=Nc2ccc(Cl)cc2)ccc1O | - | 259 µM
Cc1cc(O)c2c(c1)C(c1ccc3cc4c(c(O)c3c1O)C(=O)CC(C)(O)C4)c1cccc(O)c1C2=O | - | 8 µg/mL
C[C@H](n1nnc(CCN2CCN(c3ccccc3)CC2)n1)[C@](O)(Cn1cncn1)c1ccc(F)cc1F | - | 8 µg/mL
CCC(=O)/C=C1\Sc2ccccc2N1C1CCCCCCC1 | ATCC 14053 | >100 µg/mL
NS(=O)(=O)c1nnc(NS(=O)(=O)c2ccc(NC(=O)NS(=O)(=O)c3ccc(F)cc3)cc2)s1 | C316 | >100 µg/mL
Cc1ccc(C(=O)CC(N/N=C(\N)c2ccccn2)c2ccncc2)cc1 | C873 | 80 µg/mL
N/C(=N/N=C1CCCCCCC1)SCc1ccc(Cl)cc1Cl | - | >200 µg/mL
Cc1ccc(C(C[N+](=O)[O-])Sc2ccccc2C(=O)O)cc1 | ATCC64550 | 3.9 µg/mL
O=C(/C=C/c1ccccc1)N1CCCCC1 | - | 0.002 µg/mL
O=C(O)c1ccccc1SC(C[N+](=O)[O-])c1ccc(Cl)cc1 | ATCC64550 | 3.9 µg/mL
O=C(/C=C/c1ccccc1)OCc1ccccc1 | - | 0.002 µg/mL